Source: publication PMC11879855, “Structural insights into tecovirimat antiviral activity and poxvirus resistance” (2025)

Experiments:
rVACV^WT = conditions: rVACV WT on BSC40 cells with tecovirimat; individual plaques, two replicate columns (Panel C right)
[1] = test system: MPXV clade IIb strain MPXV/2022/FR/CMIP; assay: MPXV plaque inhibition (neutralization) assay in Vero cells; conditions: ratio of IC50 values

O=C(NN1C(=O)[C@@H]2[C@@H]3C=C[C@@H]([C@H]4C[C@@H]34)[C@@H]2C1=O)c1ccc(C(F)(F)F)cc1
plaque size, WT + Tecovirimat (rVACV^WT): 0
antiviral activity, times better than IMCBH [1]: 5
